Mutational interference map of HIV-1 RNA dimerization

Sequence of the HIV-1 NL4-3 5' RNA, positions 1 to 437, as numbered in the source:
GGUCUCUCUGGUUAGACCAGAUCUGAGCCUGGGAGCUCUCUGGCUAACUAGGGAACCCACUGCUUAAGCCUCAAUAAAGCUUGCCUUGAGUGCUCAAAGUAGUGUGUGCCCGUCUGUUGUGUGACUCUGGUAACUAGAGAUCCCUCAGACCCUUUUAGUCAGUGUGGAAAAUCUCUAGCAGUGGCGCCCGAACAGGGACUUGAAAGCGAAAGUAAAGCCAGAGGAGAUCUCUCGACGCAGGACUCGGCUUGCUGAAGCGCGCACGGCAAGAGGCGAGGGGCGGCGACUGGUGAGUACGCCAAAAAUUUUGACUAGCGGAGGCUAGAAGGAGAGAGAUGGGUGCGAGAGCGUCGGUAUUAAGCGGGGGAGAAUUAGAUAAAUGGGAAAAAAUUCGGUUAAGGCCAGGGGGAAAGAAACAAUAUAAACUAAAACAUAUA

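Randomly mutated transcripts starting with one, two or three G (1G, 2G, 3G), capped or uncapped, were folded for 30 min at 37 °C. Monomer and dimer bands were cut from native gels after folding in high salt (300 mM KCl, 5 mM MgCl2) or low salt (40 mM KCl, 0.1 mM MgCl2). Kdimer compares mutation frequencies in monomer and dimer, corrected for sequencing errors.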

Values are log2 Kdimer, the median over the changes at each position: higher means that changes there hinder dimer formation, below 0 that they favour it. One numbering serves 1G, 2G and 3G. A position is written with its base where known. The source gives no letters past position 437.

position	domain	3G capped high-salt	1G capped high-salt	2G capped low-salt
A368	none	0.15	0.15	-0.07
U213	PBS	-0.31	-0.11	-0.45
A209	PBS	1.04	0.99	0.82
G383	none	0.08	0.11	0.11
U24	TAR	-0.12	-0.03	-0.09
470	none	0.08	0.09	0.10
G190	PBS	0.23	0.28	0.25
C84	PolyA	-0.47	-0.44	-0.29
C402	none	-0.11	0.02	-0.20
A198	PBS	0.26	0.18	-0.35
G79	PolyA	-0.06	0.00	0.21
G338	AUG	0.04	0.05	0.06
G106	U5	-0.41	-0.06	0.10
A412	none	0.06	0.03	-0.01
477	none	-0.08	-0.14	-0.15
482	none	0.02	-0.06	-0.09
G148	PBS	-0.09	0.07	0.03
G62	PolyA	-0.01	0.27	0.66
G247	SL1	-0.95	-0.76	-1.10
A330	none	0.15	0.11	0.47
G119	none	-0.01	-0.27	-0.30
U159	PBS	-0.14	0.00	-0.29
A46	TAR	-0.12	-0.32	-0.42
G206	PBS	-1.07	-0.81	-0.79
G367	none	0.20	0.19	0.18
C185	PBS	-0.09	0.04	-0.30
A263	SL1	-0.15	0.01	1.09
A76	PolyA	0.08	0.15	0.04
G217	antiPAS	-1.16	-1.02	-1.19
U381	none	-0.04	0.01	-0.08
C56	TAR	-0.03	0.16	-0.01
U75	PolyA	-0.03	0.01	-0.15
G353	none	0.07	0.04	0.30
C245	SL1	1.13	0.91	1.63
491	none	-0.04	0.12	-0.06
G340	AUG	0.15	-0.03	0.21
A345	none	0.14	0.24	0.19
A374	none	0.00	0.00	0.06
A124	none	0.10	0.25	0.21
G52	TAR	0.04	0.19	0.02
A386	none	0.07	0.14	0.02
C40	TAR	0.05	-0.32	0.04
G273	SL1	-0.68	-0.58	-0.33
G196	PBS	0.29	0.32	0.60
U145	PBS	0.09	0.11	0.00
A356	none	0.11	0.10	-0.05
G409	none	0.09	0.11	-0.05
481	none	-0.18	-0.23	-0.16
A74	PolyA	0.02	-0.10	0.13
U120	none	0.07	0.12	0.26
A96	PolyA	0.00	-0.08	-0.18
C393	none	0.06	0.04	-0.03
A180	PBS	-0.11	-0.07	-0.13
C63	PolyA	0.02	0.49	0.06
A302	none	0.00	-0.08	-0.23
C146	PBS	-0.10	0.04	0.04
C142	PBS	0.07	0.02	0.16
U396	none	-0.03	-0.01	-0.03
474	none	-0.07	-0.03	0.01
456	none	-0.08	0.00	-0.08
A428	none	0.01	-0.03	0.14
A171	PBS	0.07	0.03	0.17
C57	TAR	-0.71	0.15	0.07
U122	none	-0.31	-0.24	0.43
U427	none	0.06	-0.02	-0.01
U81	PolyA	0.05	0.01	0.27

Excerpt, the final 5 entries:

- A171 (domain PBS) = 3G capped high-salt 0.07; 1G capped high-salt 0.03; 2G capped low-salt 0.17
- C57 (domain TAR) = 3G capped high-salt -0.71; 1G capped high-salt 0.15; 2G capped low-salt 0.07
- U122 = 3G capped high-salt -0.31; 1G capped high-salt -0.24; 2G capped low-salt 0.43
- U427 = 3G capped high-salt 0.06; 1G capped high-salt -0.02; 2G capped low-salt -0.01
- U81 (domain PolyA) = 3G capped high-salt 0.05; 1G capped high-salt 0.01; 2G capped low-salt 0.27

Source: Ye et al. 2022 (doi:10.1038/s41594-022-00746-2), supplementary data.